Anti-infective test results gathered from many reports (values: NIAID ChemDB through PubChem).

Common to all: growth or infection tests; species: HIV-1; measure: EC50

Neighbouring rows are from separate reports. ECn is the concentration giving n% inhibition of infection, replication or growth. Two numbers with a dash give a range or band.

CC(C)C1=C2[C@H]3CC[C@@H]4[C@@]5(C)CC[C@H](OC(=O)[C@H]6C[C@@H](C(=O)O)C6(C)C)C(C)(C)[C@@H]5CC[C@@]4(C)[C@]3(C)CC[C@@]2(CCNCC(C)(CCCCN)NC(=O)c2ccc(Cl)cc2)CC1=O ; strain: 92HT599 ; cells: MT-2 ; read by: p24 / ELISA ; result: <1 µM
CNC(=O)c1c(O)c2ncc(Cc3ccc(F)cc3)c3c2n(c1=O)C[C@](C)(C(=O)NCCC#N)O3 ; strain: IIIB ; cells: MT-2 ; read by: ATP / luminescence ; result: 0.014 µM
O=C(O)c1cc(-n2cccc2)ccc1Cl ; strain: 93IN101 R5 CLADE C ; cells: PBMC/5.25M7 ; read by: luciferase / cell fusion ; result: 82.25 µM
CNC(=O)[C@@]1(C)Cn2c(=O)c(C(=O)NCCOC)c(O)c3ncc(Cc4ccc(F)cc4)c(c32)O1 ; strain: IIIB ; cells: MT-2 ; read by: ATP / luminescence ; result: 0.0035 µM
CCC[C@@]1(CCc2ccccc2)CC(O)=C([C@H](CC)c2cccc(NS(=O)(=O)c3ccc(C(F)(F)F)cn3)c2)C(=O)O1 ; mutations: V32I I50V L76V G73S V82I ; strain: T13717 ; cells: MT-4 ; read by: reporter gene ; result: 86 nM
CC(C)C1=C2[C@H]3CC[C@@H]4[C@@]5(C)CC[C@H](OC(=O)[C@H]6C[C@@H](C(=O)O)C6(C)C)C(C)(C)[C@@H]5CC[C@@]4(C)[C@]3(C)CC[C@@]2(CCNCC(CCCN)NC(=O)c2ccc(Cl)cc2)CC1=O ; strain: 92HT599 ; cells: MT-2 ; read by: p24 / ELISA ; result: <1 µM
C[C@@H]1CCO[C@H]2Cn3cc(C(=O)NCc4ccc(F)cc4F)c(=O)c(O)c3C(=O)N12 ; mutations: V72I/L74F/V75I ; cells: TZM-bl ; read by: luciferase / luminescence ; result: 0.0013 µM
CC(C)C1=C2[C@H]3CC[C@@H]4[C@@]5(C)CC[C@H](OC(=O)[C@H]6C[C@@H](C(=O)O)C6(C)C)C(C)(C)[C@@H]5CC[C@@]4(C)[C@]3(C)CC[C@@]2(CCNC(=O)c2ccc(Cl)cc2OCCN2CCOCC2)CC1=O ; strain: 92HT599 ; cells: MT-2 ; read by: p24 / ELISA ; result: <1 µM
CCNC(=O)[C@]1(C)Cn2c(=O)c(C(=O)NC)c(O)c3ncc(Cc4ccc(F)cc4)c(c32)O1 ; strain: IIIB ; cells: MT-2 ; read by: ATP / luminescence ; result: 0.0145 µM
C[C@@H]1CN(C(=O)c2ccccc2)CCN1C(=O)C(=O)c1c[nH]c2c(NC(=O)Nc3ccccc3C(=O)O)cccc12 ; cells: HeLa ; read by: luciferase / reporter gene ; result: <1 µM
COC(C(=O)O)c1c(C)nc2ccc(Cl)cc2c1-c1ccc2cc[nH]c2c1 ; cells: C8166 ; read by: luciferase / reporter gene ; result: <20 µM
CCN1c2ncc(CCOc3ccc(-c4cn(C)cn4)cc3C)cc2C(=O)N(C)c2cccnc21 ; strain: IIIB ; cells: C8166 ; read by: p24 ; result: <0.01 µM
CCc1ccc(-c2c(C(OC3(C)CCCC3)C(=O)O)c(C)nc3ccc(Cl)cc23)cc1 ; cells: C8166 ; read by: luciferase / reporter gene ; result: <20 µM
Cc1cc(CNC(=O)c2nc3n(c(=O)c2O)[C@@H](C)COC[C@@H]3N(C)C(=O)C(=O)N(C)C)ccc1F ; mutations: N155H ; cells: HeLa P4-2 ; read by: single cycle ; result: 0.002 µM
Cc1nc2ccc(Br)cc2c(-c2ccc(Cl)cc2)c1C(OC(C)C)C(=O)O ; cells: C8166 ; read by: luciferase / reporter gene ; result: <20 µM
CCN1c2ncc(CCOc3ccc(C(=O)N=c4ccn(O)cc4)cc3C)cc2C(=O)N(C)c2cccnc21 ; strain: IIIB ; cells: C8166 ; read by: p24 ; result: <0.01 µM
COc1ccc(-c2c(C(OC)C(=O)O)c(C)nc3ccc(Cl)cc23)cc1 ; cells: C8166 ; read by: luciferase / reporter gene ; result: <20 µM
CCN1c2ncc(CCOc3ccc(-c4ccc(C(=O)O)s4)cc3)cc2C(=O)N(C)c2cccnc21 ; mutations: RT-K103N Y181C ; cells: C8166 ; read by: p24 ; result: 0.01–0.05 µM
C[C@@H]1CN(C(=O)c2ccccc2)CCN1C(=O)C(=O)c1c[nH]c2c(NC(=O)NCCOCCOCCNC(=O)c3cccc(B(O)O)c3)cccc12 ; cells: HeLa ; read by: luciferase / reporter gene ; result: <1 µM
CC[C@H]1COC[C@H](N(C)C(=O)C(=O)N(C)C)c2nc(C(=O)NCc3ccc(F)cc3)c(O)c(=O)n21 ; mutations: Q148R ; cells: HeLa P4-2 ; read by: single cycle ; result: 0.001 µM
CC(C)C1=C2[C@H]3CC[C@@H]4[C@@]5(C)CC[C@H](OC(=O)[C@H]6C[C@@H](C(=O)O)C6(C)C)C(C)(C)[C@@H]5CC[C@@]4(C)[C@]3(C)CC[C@@]2(CCNC(=O)[C@@H]2CCCCN2)CC1=O ; strain: 92HT599 ; cells: MT-2 ; read by: p24 / ELISA ; result: <1 µM
O=C(NCCO)c1c(O)c2ncc(Cc3ccc(F)cc3)c3c2n(c1=O)CCCN3 ; strain: IIIB ; cells: MT-2 ; read by: ATP / luminescence ; result: 0.008 µM
C[C@H]1CO[C@@H]2Cn3cc(C(=O)NCc4ccc(F)cc4F)c(=O)c(O)c3C(=O)N12 ; mutations: H51Y/R263K ; strain: NL4-3 ; cells: CBMC ; read by: RT activity ; result: 0.00098 µM
CC(C)C1=C2[C@H]3CC[C@@H]4[C@@]5(C)CC[C@H](OC(=O)[C@H]6C[C@@H](C(=O)O)C6(C)C)C(C)(C)[C@@H]5CC[C@@]4(C)[C@]3(C)CC[C@@]2(CC(=O)NCC(C)(C)NC(=O)c2ccc(Cl)cc2OCCN(C)C)CC1=O ; strain: 92HT599 ; cells: MT-2 ; read by: p24 / ELISA ; result: <1 µM
Cc1cc(CNC(=O)c2nc3n(c(=O)c2O)CC(C)(C)CC[C@@H]3N(C)C(=O)C(=O)N(C)C)ccc1F ; mutations: G140S/Q148H ; cells: HeLa P4-2 ; read by: single cycle ; result: 0.034 µM
CCN1c2ncc(CCOc3ccc(-c4ccc(CC(=O)O)cc4)cc3CO)cc2C(=O)N(C)c2cccnc21 ; strain: IIIB ; cells: C8166 ; read by: p24 ; result: <0.01 µM
CCc1ccc(-c2c(C(OC3(C)CCC3)C(=O)O)c(C)nc3ccc(Cl)cc23)cc1 ; cells: C8166 ; read by: luciferase / reporter gene ; result: <20 µM
Cc1cc(CNC(=O)c2nc3n(c(=O)c2O)[C@@H](C)COC[C@H]3N(C)C(=O)C(=O)N(C)C)ccc1F ; mutations: N155H ; cells: HeLa P4-2 ; read by: single cycle ; result: 0.002 µM
CC(C)c1c(Cc2ccccc2)n(COCc2ccccc2)c(=O)[nH]c1=O ; mutations: Y181C ; strain: A17 ; cells: TZM-bl ; read by: p24 / ELISA ; result: >10 µM
CC(C)=CCOc1cc(NC(=S)c2ccsc2C)ccc1Cl ; strain: IIIB ; cells: CEM + CEM-SS ; read by: p24 ; result: 0.03 µM
Cc1ccc(CNC[C@H](O)[C@@]23CC[C@]4(C)[C@H](CC[C@@H]5[C@@]6(C)CC[C@H](OC(=O)[C@H]7C[C@@H](C(=O)O)C7(C)C)C(C)(C)[C@@H]6CC[C@]54C)C2=C(C(C)C)C(=O)C3)cn1 ; strain: 92HT599 ; cells: MT-2 ; read by: p24 / ELISA ; result: <1 µM
CCCC(C(=O)O)c1c(C)nc2ccc(Cl)cc2c1-c1ccc(C)cc1C ; cells: C8166 ; read by: luciferase / reporter gene ; result: <20 µM
CNCCN1CCN(c2cccc3c(C(=O)C(=O)N4CCN(C(=O)c5ccccc5)C[C@H]4C)c[nH]c23)C1=O ; cells: HeLa ; read by: luciferase / reporter gene ; result: <1 µM
Cc1cn([C@H]2C[C@H](N=[N+]=[N-])[C@@H](CO)O2)c(=O)[nH]c1=O ; strain: NL4-3 ; cells: TZM-bl ; read by: luciferase / luminescence ; result: 0.00825 µM
CNC(=O)c1c(O)c2ncc(Cc3ccc(F)cc3)c3c2n(c1=O)C[C@](C)(C(=O)NCC1(C#N)CC1)O3 ; strain: IIIB ; cells: MT-2 ; read by: ATP / luminescence ; result: 0.014 µM
CC[C@@H]1COC[C@@H](N(C)C(=O)C(=O)N(C)C)c2nc(C(=O)NCc3ccc(F)cc3)c(O)c(=O)n21 ; mutations: N155H ; cells: HeLa P4-2 ; read by: single cycle ; result: 0.013 µM
CCc1ccc(-c2c(C(O[C@@H](C)CC)C(=O)O)c(C)nc3ccc(Cl)cc23)cc1 ; cells: C8166 ; read by: luciferase / reporter gene ; result: <20 µM
CCN1c2ncc(CCOc3ccc(-c4ccc(C(=O)O)c(Cl)c4)cc3C)cc2C(=O)N(C)c2cccnc21 ; strain: IIIB ; cells: C8166 ; read by: p24 ; result: 0.01–0.05 µM
CNC(=O)c1c(O)c2ncc(Cc3ccc(F)cc3)c3c2n(c1=O)C[C@](C)(C(=O)NCCO)O3 ; strain: IIIB ; cells: MT-2 ; read by: ATP / luminescence ; result: 0.014 µM
CC(C)CN(C[C@@H](O)[C@H](Cc1ccccc1)NC(=O)O[C@H]1CO[C@H]2OCC[C@H]21)S(=O)(=O)c1ccc(C(=O)O)cc1 ; strain: LAI ; cells: MT-2 ; read by: p24 / luminescence ; result: 1 µM
CC(C)N=C(Nc1cccc2c(C(=O)C(=O)N3CCN(C(=O)c4ccccc4)C[C@H]3C)c[nH]c12)NC(C)C ; cells: HeLa ; read by: luciferase / reporter gene ; result: <1 µM
CNC(=O)c1c(O)c2ncc(Cc3ccc(F)cc3)c3c2n(c1=O)C[C@](C)(C(=O)NC(C)(C)CO)O3 ; strain: IIIB ; cells: MT-2 ; read by: ATP / luminescence ; result: 0.0085 µM
CCN1c2ncccc2NC(=O)c2cc(CCOc3ccc(-c4cc(OC)c(O)c(C(=O)O)c4)cc3C)cnc21 ; mutations: RT-K103N Y181C ; cells: C8166 ; read by: p24 ; result: >0.05 µM
CNC(=O)c1c(O)c2ncc(Cc3ccc(F)cc3)c3c2n(c1=O)C[C@H](CN1CCOCC1(C)C)O3 ; strain: IIIB ; cells: MT-2 ; read by: ATP / luminescence ; result: 0.0076 µM
CC[C@H]1COC[C@@H](N(C)C(=O)C(=O)N(C)C)c2nc(C(=O)NCc3ccc(F)cc3)c(O)c(=O)n21 ; mutations: N155H ; cells: HeLa P4-2 ; read by: single cycle ; result: 0.001 µM

A second listing of 4 rows from above:

C[C@@H]1CN(C(=O)c2ccccc2)CCN1C(=O)C(=O)c1c[nH]c2c(NC(=O)NCCOCCOCCNC(=O)c3cccc(B(O)O)c3)cccc12 ; cells: HeLa ; read by: luciferase / reporter gene ; result: <1 µM
CNC(=O)c1c(O)c2ncc(Cc3ccc(F)cc3)c3c2n(c1=O)C[C@](C)(C(=O)NCCO)O3 ; strain: IIIB ; cells: MT-2 ; read by: ATP / luminescence ; result: 0.014 µM
CC(C)CN(C[C@@H](O)[C@H](Cc1ccccc1)NC(=O)O[C@H]1CO[C@H]2OCC[C@H]21)S(=O)(=O)c1ccc(C(=O)O)cc1 ; strain: LAI ; cells: MT-2 ; read by: p24 / luminescence ; result: 1 µM
CNC(=O)c1c(O)c2ncc(Cc3ccc(F)cc3)c3c2n(c1=O)C[C@](C)(C(=O)NCCC#N)O3 ; strain: IIIB ; cells: MT-2 ; read by: ATP / luminescence ; result: 0.014 µM